Data source: PubChem BioAssay AID504761 (Drosophila RNAi Screening Center, 2011)

Test: 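Insect host genes that dengue virus relies on to spread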 (primary screen)
Cell system: D.Mel-2 cells from Drosophila
Reagent: long dsRNA against Drosophila genes
Treatment: infection with dengue virus type 2; dose and infection time not stated
Measured: 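Cells stained for dengue envelope protein and imaged; percent of infected cells per well on duplicate plates, ranked by infection, with stained nuclei counted for cell number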
Reading the numbers: infection score: higher = more virus-infected cells; cell count: higher = more cells in the well
Hit rule: 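Very low infection ranking in both replicate wells (chance probability at most 0.065), then a retest showing infection dropped 1.5-fold or more at p below 0.05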
Calls: active = confirmed: knock-down lowers infection; inactive = not picked or not confirmed
In all, the deposit lists about 22,000 reagents; below is an unselected part of those with a known target gene and a result. Of all reagents, 116 (0.52%) got an active call. 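Calls depend on retest data that are not deposited; infection was ranked per plate without normalising between plates; the unit of the infection score is not given.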 Raw values vary from plate to plate and are shown uncorrected. A number with no mark means an inactive call. Reagents against one gene are numbered here. Further read-outs or replicates are left out here. Not given: the amount of reagent, the time to read-out.

CG8441
- infection score, replicate 1: 22.8
- cell count, replicate 1: 6155

CG14635 #1
- infection score, replicate 1: 9.48
- cell count, replicate 1: 3303

CG14635 #2
- infection score, replicate 1: 14.6
- cell count, replicate 1: 6368

CG15764 #1
- infection score, replicate 1: 8.33
- cell count, replicate 1: 6485

CG15764 #2
- infection score, replicate 1: 2.43
- cell count, replicate 1: 6534

CG30378
- infection score, replicate 1: 2.14
- cell count, replicate 1: 6015

CG14104
- infection score, replicate 1: 1.68
- cell count, replicate 1: 6423

Sf3a2 (Splicing factor 3a subunit 2)
- infection score, replicate 1: 26.9
- cell count, replicate 1: 3774

mTerf3 (mitochondrial transcription termination factor 3)
- infection score, replicate 1: 11.7
- cell count, replicate 1: 6249

Copied from the list:
For “cell count, replicate 1”, Sf3a2 (Splicing factor 3a subunit 2) shows 3774
Result for CG30378 under “infection score, replicate 1”: 2.14

Additional reagents:
CG17078 #1
- infection score, replicate 1: 1.7
- cell count, replicate 1: 6547

CG17078 #2
- infection score, replicate 1: 2.67
- cell count, replicate 1: 5960

CG4374 #1
- infection score, replicate 1: 5.07
- cell count, replicate 1: 1755

CG4374 #2
- infection score, replicate 1: 25.8
- cell count, replicate 1: 5122

CG15719
- infection score, replicate 1: 3.03
- cell count, replicate 1: 5937

CG10910 #1
- infection score, replicate 1: 0.28
- cell count, replicate 1: 353

CG10910 #2
- infection score, replicate 1: 8.83
- cell count, replicate 1: 1994

grh (grainy head) #1
- infection score, replicate 1: 1.26
- cell count, replicate 1: 6247

grh (grainy head) #2
- infection score, replicate 1: 1.54
- cell count, replicate 1: 5789

grh (grainy head) #3
- infection score, replicate 1: 12.3
- cell count, replicate 1: 6063

grh (grainy head) #4
- infection score, replicate 1: 8.51
- cell count, replicate 1: 6273

grh (grainy head) #5
- infection score, replicate 1: 2.73
- cell count, replicate 1: 6224
